Measured values published in PMC10169850.
For at least one entry, the source does not settle the construct or the ends of the probe. Where a protein sequence is shown, tags need not be part of it.

Molecular target: T1, Fnr-His6 (Salmonella enterica serovar Typhimurium 14028S) (UniProt P0A2T8)
T1 sequence (looked up, limits assumed): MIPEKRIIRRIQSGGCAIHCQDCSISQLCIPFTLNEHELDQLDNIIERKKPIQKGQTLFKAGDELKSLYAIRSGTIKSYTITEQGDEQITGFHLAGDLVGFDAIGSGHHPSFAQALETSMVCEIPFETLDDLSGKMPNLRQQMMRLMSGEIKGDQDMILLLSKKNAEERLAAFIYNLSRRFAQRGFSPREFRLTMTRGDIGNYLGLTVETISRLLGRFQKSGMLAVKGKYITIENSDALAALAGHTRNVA
Assay: EMSA
Conditions: low O2, Fnr 0-20 uM, 20 mM Tris-HCl pH 7.5, 80 mM NaCl, 0.1 mM EDTA, 1 mM DTT, 5% glycerol, recombinant protein, protein details: His6, label: none (ethidium bromide stain), probe letters rebuilt from the primers and the genome

TTATCCTGCCAGCCTTCGCGCGCGGTTAACACCAGAACCGGCAGTGAAACATCACTGCTGCGCCAGCGGCGTATTAAGGAAAGGCCGTCTTCATCCGGCAGACCTAAATCGACAATAGCGATATCCGGAAGGTGTTCATTAAGGTAGTAATCAGCTTCCCTGGCATCTTCTGCGGCATCGACCTGGTGACCTGAATCCTGGAGCTGAACCTTCAGGTGGTGGCGTAATAATGCATTATCCTCTACAACCAGTACGCGCATCATCTCTTCTCCCTTGTGTTAACAATAAGAACAGTCTAGCGTTGATTATGGTGCTTTGGGGATAAACAGTTAATAAACCAGACAAATAGTCACCCTCTTTCTGAAGAAAAGAGGGTGAGGCAGGCATTATTTAAGTTCGTCGACCAGAGTCACAGCGCGACCGATATAATTTGCCGGCGTCATGGCTTTAAGGCGCGTTTTTTCTGCTTCCGGCAGGGCCAGACTATCAATAAACTGTTTCATTCCTTCGGC (double strand) [phoPQ promoter]
binding result: binds
